Earlier results, collected in patent publication US20230201309A1, “COMPOSITIONS FOR THE TREATMENT OF A RESPIRATORY CONDITION” (VECTURA LIMITED, priority 2020, published 2023).

System: SARS-CoV-2 infection
Conditions: inhaled nebulised; phase 2 trial

B1: interferon beta-1a: inhaled nebulised interferon beta-1a (SNG001) (protein, UniProt P01574 22-187, looked up)
Interferon beta: MSYNLLGFLQRSSNFQCQKLLWQLNGRLEYCLKDRMNFDIPEEIKQLQQFQKEDAALTIYEMLQNIFAIFRQDSSSTGWNETIVENLLANVYHQINHLKTVLEEKLEKEDFTRGKLMSSLHLKRYYGRILHYLKAKEYSHCAWTIVRVEILRNFYFINRLTGYLRN
- odds of improvement vs placebo: greater odds of improvement
- recovery from SARS-CoV-2 infection vs placebo: recovered more rapidly
